# Data published in publication PMC13683342, “Integrative structure of norovirus NS3 suggests a role in RNA transport” (2026).
# The chains behind the UniProt entries cited, without tags or fusion partners. Residues count along the entry.
# UniProt Q83883, 460-761 limits assumed: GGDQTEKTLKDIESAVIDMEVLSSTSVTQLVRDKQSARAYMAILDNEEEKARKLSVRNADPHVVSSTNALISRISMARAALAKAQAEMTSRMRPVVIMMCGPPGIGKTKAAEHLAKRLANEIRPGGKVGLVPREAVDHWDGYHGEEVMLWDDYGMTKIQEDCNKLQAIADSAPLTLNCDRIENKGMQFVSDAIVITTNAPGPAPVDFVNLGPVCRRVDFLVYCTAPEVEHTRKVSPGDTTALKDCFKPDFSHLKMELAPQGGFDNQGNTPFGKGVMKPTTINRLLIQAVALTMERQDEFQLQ
# Molecular target: MBP-hex-NS3 (Norovirus Hu/1968/US, UniProt Q83883)
# Assay: malachite green ATPase assay
# Conditions: 1 mM ATP, 10 mM MgCl2, pH 7.5, 37 °C, 30 min preincubation; caption calls the construct hex-NS3, b13 says MBP-tagged used
# Excerpt: malachite green ATPase assay on MBP-hex-NS3 | dose-dependent decrease in ATP hydrolysis in the presence of increasing concentrations of ATPγS
compound,measurement,value
Nc1ncnc2c1ncn2[C@@H]1O[C@H](COP(=O)(O)OP(=O)(O)OP(O)(O)=S)[C@@H](O)[C@H]1O,dose-dependent decrease in ATP hydrolysis,dose-dependent decrease in ATP hydrolysis in the presence of increasing concentrations of ATPγS
